Pooled drug test results. Numbers come from NIAID ChemDB, via PubChem.

Shared fields: growth or infection tests; agent: HIV-1; cell line: MT-4; read by: p24; read-out: EC95

An empty or dashed field is not shown. Lines come from different laboratories, so protocols vary. ECn is the concentration giving n% inhibition of infection, replication or growth.

SMILES,strain,mutations,value
O=C(NCc1ccc(F)cc1)c1nc2n(c(=O)c1O)C(=O)N(Cc1ccccc1)CC2,,,<50 µM
O=C1c2c(O)c(=O)n(N3CCCCCC3)c(=O)n2CCN1Cc1ccc(F)cc1,,,<10 µM
CN1CCn2c(nc(C(=O)NCc3ccc(F)cc3)c(O)c2=O)C(N(C)S(C)(=O)=O)C1,,,<1 µM
O=C1c2c(O)c(=O)n(C3CCSc4ccccc43)c(=O)n2CCN1Cc1ccc(F)cc1,,,<10 µM
CC(=O)N(CC1CCCCC1)C1CN(C)CCn2c1nc(C(=O)NCc1ccc(F)cc1)c(O)c2=O,,,<1 µM
Cc1cc(OCC(=O)Nc2ccc(S(N)(=O)=O)cc2Cl)cc(Oc2cc(Cl)cc(C#N)c2)c1,,,<20 µM
CC(c1cccc2ccccc12)n1c(=O)c(O)c2n(c1=O)CCN(Cc1ccc(F)cc1)C2=O,,,<10 µM
CS(=O)(=O)c1ccc(NC(=O)COc2ccc(Cl)c(Oc3cc(Cl)cc(C#N)c3)c2)c(Cl)c1,,,<20 µM
CC1(C)c2nc(C(=O)NCc3ccc(F)cc3)c(O)c(=O)n2CCN1CC(=O)NCc1ccncc1,,,<1 µM
N#Cc1cc(Cl)cc(Oc2cc(F)c(Cl)c(OCc3nnc4n(O)cccc3-4)c2)c1,,,<20 µM
O=C1c2c(O)c(=O)n(C3Cc4ccccc4C3)c(=O)n2CCN1Cc1ccc(F)cc1,,,<10 µM
Cc1cc(CNC(=O)c2nc3n(c(=O)c2O)CCN(C2CC2)CC3N(C)C(=O)C(=O)N(C)C)ccc1F,,,<1 µM
NS(=O)(=O)c1ccc(NC(=O)COc2cc(Cl)cc(Oc3ccccc3)c2)c(Cl)c1,,,<20 µM
CC(C)n1c(=O)c(O)c2n(c1=O)C(CCN(C)Cc1ccccc1)CN(Cc1ccc(F)cc1)C2=O,,,<10 µM
CC(C)[C@H](NC(=O)OCc1ccccn1)C(=O)N[C@@H](Cc1ccccc1)[C@@H](O)C[C@H](Cc1ccccc1)NC(=O)OCc1cccnc1,NL4-3,PR-V82T,1.5 µM
N#Cc1cc(Cl)cc(Oc2cc(OCc3[nH]nc4ncccc34)ccc2Cl)c1,,,<20 µM

For reference, 2 entries again:

SMILES	strain	mutations	value
CC(C)[C@H](NC(=O)OCc1ccccn1)C(=O)N[C@@H](Cc1ccccc1)[C@@H](O)C[C@H](Cc1ccccc1)NC(=O)OCc1cccnc1	NL4-3	PR-V82T	1.5 µM
Cc1cc(CNC(=O)c2nc3n(c(=O)c2O)CCN(C2CC2)CC3N(C)C(=O)C(=O)N(C)C)ccc1F			<1 µM